# Measurements from the supplement of paper PMC6992640.
# ± gives the standard deviation of the averaged measurements. This is a selection; strong and weak results do not stand in their true shares.
# Tests used:
# Assay in all cases: cell viability (% of vehicle); higher = less cytotoxic
# Conditions in all cases: 10 µM; 72 h
# [1] = system: HCI01 (cells of a triple-negative basal-like breast cancer xenograft)
# [2] = system: HCI03 (cells of an ER-positive luminal breast cancer xenograft)
# [3] = system: HCI09 (cells of a triple-negative luminal androgen receptor type breast cancer xenograft)
# [4] = system: HCI11 (cells of an ER-positive luminal breast cancer xenograft)
# [5] = system: HCI13 (cells of an ER-positive luminal breast cancer xenograft)
# [6] = system: HCI16 (cells of a triple-negative basal-like breast cancer xenograft)
# [7] = system: UCD52 (cells of a triple-negative basal-like breast cancer xenograft)
# [8] = system: WHIM2 (cells of a triple-negative basal-like breast cancer xenograft)
# [9] = system: WHIM30 (cells of a triple-negative basal-like breast cancer xenograft)
# 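Also: PDX cells carrying CMV promoter-driven luciferase, viability read as total photon flux per second by IVIS imaging following D-luciferin, vehicle control 0.1% DMSO.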
smiles,measurement,setting,value
O=P([O-])([O-])F.[Na+].[Na+] [Sodium Monofluorophosphate],cell viability,[1],111 ± 31
same,cell viability,[2],106
same,cell viability,[3],102 ± 3.8
same,cell viability,[4],93
same,cell viability,[5],52.4 ± 3.3
same,cell viability,[6],103
same,cell viability,[7],85 ± 17
same,cell viability,[8],120 ± 18
same,cell viability,[9],119 ± 13
